Anti-infective test results gathered from many reports (values: NIAID ChemDB through PubChem).

Shared fields: tests in culture; agent: Mycobacterium abscessus

Blank or dashed fields: not listed here.

smiles,method,read-out,strain or isolate,value
O=c1cc(-c2ccccc2)c2ccc(Cl)cc2o1,resazurin,MIC90,ATCC 19977,>100 µg/mL
CCN1CCc2c(sc(NC(=O)c3c(F)c(F)c(F)c(F)c3F)c2C(=O)NC)C1,resazurin / turbidity,EC50,bolletii 103,>100 µM
Cc1c(C)c(C)[c-](C)c1C.N[C@H](C(=O)[O-])c1ccccc1.[Cl][Rh+2],,MIC,AAy-P-1,15 µg/mL
CCCCCCCCCCCCCCCCCCCC(=O)NC(CCC(=O)O)(CCC(=O)O)CCC(=O)O,,MIC,AAy-P-1,3.4 µg/mL
NCC[C@H](O)C(=O)N[C@@H]1C[C@H](N)[C@@H](O[C@H]2O[C@H](CN)[C@@H](O)[C@H](O)[C@H]2O)[C@H](O)[C@H]1O[C@H]1O[C@H](CO)[C@@H](O)[C@H](N)[C@H]1O,broth dilution,MIC,CIP 104536,32 µg/mL
CC[C@H]1OC(=O)[C@H](C)[C@@H](O[C@H]2C[C@@](C)(OC)[C@@H](O)[C@H](C)O2)[C@H](C)[C@@H](O[C@@H]2O[C@H](C)C[C@H](N(C)C)[C@H]2O)[C@](C)(O)C[C@@H](C)CN(C)[C@H](C)[C@@H](O)[C@]1(C)O,broth dilution / visual reading,MIC100,Clinical isolate MR27419N,1 µg/mL
CC(=O)NC[C@H]1CN(c2ccc3c(c2)Oc2ccccc2O3)C(=O)O1,broth dilution / visual reading,MIC90,,>64 µg/mL
C[C@@H](O)[C@H]1C(=O)N2C(C(=O)O)=C(S[C@H]3CCCN3)S[C@H]12,visual reading,MIC,L948,2 µg/mL
CCN1CCc2c(sc(NC(=O)c3c(F)c(F)c(F)c(F)c3F)c2C(N)=O)C1,resazurin / turbidity,MIC,bolletii 103,>200 µM
CCCCCCCCN(CCCCCCCC)C(=O)NC(CCC(=O)O)(CCC(=O)O)CCC(=O)O,,MIC,AAy-P-1,72 µg/mL
CCOC(=O)c1c(NC(=O)c2c(F)c(F)c(F)c(F)c2F)sc2c1CCNC2,resazurin,MIC,,1.7 µM
CCCCCCCC(CCCCCCC)OC(=O)NC(CCC(=O)O)(CCC(=O)O)CCC(=O)O,,MIC,AAy-P-1,216 µg/mL
CCCCCCCN1CCc2c(sc(NC(=O)c3c(F)c(F)c(F)c(F)c3F)c2C(=O)OCC)C1,turbidity,EC50,,34 µM
C[C@@H](O)[C@H]1C(=O)N2C(C(=O)O)=C(S[C@@H]3CCCN3)S[C@H]12,visual reading,MIC,L948,2 µg/mL
NC(=O)c1c(NC(=O)c2c(F)c(F)c(F)c(F)c2F)sc2c1CCOC2,turbidity,EC50,,68 µM
C/C=C(/C(=O)O)N1C(=O)C=C(C)C1=O,visual reading,EC50,,100 µg/mL
CCNC(=O)c1c(NC(=O)c2c(F)c(F)c(F)c(F)c2F)sc2c1CCN(CC)C2,resazurin / turbidity,EC90,bolletii 103,>200 µM
CC(C)N=c1cc2n(-c3ccc(Cl)cc3)c3ccccc3nc-2cc1Nc1ccc(Cl)cc1,broth dilution,MIC90,Clinical isolate,1 µg/mL

Rows are shuffled and stem from different studies. ECn: concentration that inhibits the pathogen or its effect by n%. A number after MIC or MFC names an inhibition level or a share of isolates.